Assay results from patent US4137310A, “Method for the control of cattle grubs employing a phenylene bis[imino(thio]carbonyl)diphosphor(thio)-amidic acid ester” (dated 1979).

System: Cuterebra sp. larvae
Test: Efficacy for the control of Cuterebra sp. in infested mice, oral treatment
Details: female mice, treated 48 hours after infestation, examined 4 days posttreatment, dosage that kills 90% of the larvae, log-probit

| SMILES | Oral (mice) Dosage LD90 [mg/kg] |
| --- | --- |
| CCOP(=O)(NC(=S)Nc1ccc(Cl)cc1NC(=S)NP(=O)(OCC)OCC)OCC | 8.22 |
| CCOP(=O)(NC(=S)Nc1ccccc1NC(=S)NP(=O)(OCC)OCC)OCC | 24.3 |
| CCOP(=O)(NC(=S)Nc1ccc(NC(=S)NP(=O)(OCC)OCC)c(Cl)c1)OCC | 151.84 |
